Anti-infective test results gathered from many reports (values: NIAID ChemDB through PubChem).

All rows: tests in culture; species: Hepatitis C virus; cells: Huh7; read-out: EC50

Blank or dashed fields: not listed here. Two numbers with a dash give a range or band. ECn is the concentration giving n% inhibition of infection, replication or growth. Conditions beyond the fields shown may differ between rows.

SMILES	strain	mutations	method	result
O=C(CCCCc1ccccc1)N/N=C/c1ccccc1OS(=O)(=O)c1ccc(C(F)(F)F)cc1			replicon	5–50 µM
Nc1nc(N2CCS(=O)(=O)CC2)c2nc(-c3ccc(C(=O)NC4CC4)cc3)ccc2n1			replicon	<0.3 µM
CN(C)S(=O)(=O)NC(=O)c1ccc2c(C3CCCCC3)c3n(c2c1)C[C@@H](C(=O)N1CCC(N2CCCC2)CC1)Cc1ccccc1-3			replicon	0.01–1 µM
CNC(=O)c1c(-c2cccnc2)oc2ccc(Cl)cc12			replicon	>30 µM
O=C1Cn2c(c(C3CCCCC3)c3ccc(C(=O)NS(=O)(=O)C4CC4)cc32)-c2ccccc2N1			replicon	0.01–1 µM
CCOc1cc(F)ccc1-c1oc2cc(-c3c(C)noc3C)c(OC)cc2c1C(=O)NC			replicon	>30 µM
C[C@@H](NC(=O)Cc1ccccc1)C(=O)Nc1ccc(C2SC(=Nc3ccc(N4CCOCC4)cc3)N(Cc3ccccn3)C2=O)cc1			replicon	<0.1 µM
Cn1c(C(=O)O)cc2cc(NC(=O)C3(NC(=O)c4ccc5c(C6CCCCC6)c6n(c5c4)CCNc4ccccc4-6)CCCC3)ccc21			replicon	0.01–1 µM
CNC(=O)c1c(-c2ccc(F)cc2)oc2cc(NC(C)=O)c(OC(C)C)cc12			replicon	<10 µM
COc1cccc(CC(=O)N/N=C/c2ccccc2OS(=O)(=O)c2ccc(Oc3ccccc3)nc2)c1			replicon	<5 µM
CN(C)C(=O)C1=Cc2ccccc2-c2c(C3CCCCC3)c3ccc(C(=O)NS(=O)(=O)N(C)C)cc3n2C1			replicon	0.01–1 µM
CNC(=O)c1ccc(-c2ccc3nc(N)nc(OC(C)C)c3n2)cc1Cl			replicon	>1 µM
CC(C)N(C)C(=O)C1=Cc2ccccc2-c2c(C3CCCCC3)c3ccc(C(=O)NS(=O)(=O)N(C)C)cc3n2C1			replicon	0.01–1 µM
CNC(=O)c1c(-c2ccc(F)cc2)oc2cc(N(Cc3nc(C(=O)O)cs3)S(C)(=O)=O)c(OC(C)C)cc12			replicon	>100 µM
COC(=O)Nc1ccc(-c2ccc3nc(N)nc(N4CCS(=O)(=O)CC4)c3n2)cc1			replicon	<0.3 µM
COc1c(-c2ccc3cc(NS(C)(=O)=O)ccc3c2)cc(-n2ccc(=O)[nH]c2=O)cc1C(C)(C)C	genotype 1b Con1	C316N	luciferase	0.0032 µM
O=C1Cn2c(c(C3CCCCC3)c3ccc(C(=O)NC4(C(=O)Nc5ncc(-c6ccc(C(=O)O)cc6)s5)CCCC4)cc32)-c2ccccc2N1			replicon	0.01–1 µM
CNC(=O)c1c(-c2ccc(F)cc2)oc2cc(N3CCOCC3)c(OCc3nn(C)cc3Cl)cc12			replicon	<1 µM
Cc1ccc(C)c(S(=O)(=O)Oc2ccccc2/C=N/NC(=O)Cc2ccccc2)c1			replicon	>50 µM
COCCOc1nc(N)nc2ccc(-c3ccc(NC(=O)OC)cc3)nc12			replicon	0.3–1 µM
CNC(=O)c1c(-c2ccc(F)cc2)oc2cc(N(C)S(C)(=O)=O)c(OCc3ccccc3OC(F)F)cc12			replicon	<1 µM
O=C(Cc1ccccc1)N/N=C/c1ccccc1OS(=O)(=O)c1ccc(F)cc1Cl			replicon	5–50 µM
O=C(Nc1ccc(C2SC(=Nc3cccc(F)c3)N(CCc3cccs3)C2=O)cc1)[C@H]1CCCN1C(=O)OCc1ccccc1			replicon	1–5 µM
CNC(=O)c1c(-c2ccc(F)cc2)oc2cc(N(Cc3cccc(CBr)n3)S(C)(=O)=O)c(OCc3cccc(CBr)n3)cc12			replicon	<10 µM
CN=C1SC(c2ccc(NC(=O)[C@@H](C)NC(=O)C(c3ccccc3)c3ccccc3)cc2)C(=O)N1Cc1ccccn1			replicon	<0.1 µM
CNC(=O)c1c(-c2ccc(F)cc2)oc2cc(-c3nccs3)c(OC(C)C)cc12			replicon	<10 µM
O=C(NS(=O)(=O)N1CCCC1)c1ccc2c(C3CCCCC3)c3n(c2c1)CC(C(=O)N1CCOCC1)Cc1ccccc1-3			replicon	0.01–1 µM
CCC(=O)Nc1ccc(-c2ccc3nc(N)nc(NCCOC)c3n2)cc1			replicon	<0.3 µM
C[C@@H](NC(=O)NCc1ccccc1)C(=O)Nc1ccc(C2SC(=Nc3cccc(F)c3)N(Cc3ccco3)C2=O)cc1			replicon	0.1–1 µM
CNC(=O)c1c(-c2ccc(Cl)c(F)c2)oc2ccc(OC)cc12			replicon	<10 µM
CCOc1ccc(CC(=O)N/N=C/c2ccccc2OS(=O)(=O)c2ccc(C(F)(F)F)cc2)cc1			replicon	5–50 µM

4 of the rows above, restated:

{"SMILES": "CCOc1ccc(CC(=O)N/N=C/c2ccccc2OS(=O)(=O)c2ccc(C(F)(F)F)cc2)cc1", "method": "replicon", "result": "5–50 µM"}
{"SMILES": "CNC(=O)c1c(-c2cccnc2)oc2ccc(Cl)cc12", "method": "replicon", "result": ">30 µM"}
{"SMILES": "CN(C)C(=O)C1=Cc2ccccc2-c2c(C3CCCCC3)c3ccc(C(=O)NS(=O)(=O)N(C)C)cc3n2C1", "method": "replicon", "result": "0.01–1 µM"}
{"SMILES": "CNC(=O)c1c(-c2ccc(F)cc2)oc2cc(NC(C)=O)c(OC(C)C)cc12", "method": "replicon", "result": "<10 µM"}